Article PMC9374677, “Staphylococcal superantigen-like protein 10 induces necroptosis through TNFR1 activation of RIPK3-dependent signal pathways” (2022)

Target: MBP-tagged extracellular domain of human TNFR1 (amino acids 22-211) (human) (UniProt P19438)

**Q.** With “Staphylococcal superantigen-like protein 10 (SSL10), residues 31-227, C-terminal 6xHis (from UniProt A0A0H3K6Z9 31-227)” as the substance, how does the Kd read?
**A.** 3.87 µM
